Compound potency records, mixed from different reports. Data source: NIAID ChemDB in PubChem.

Shared fields: whole-cell or culture tests; agent: Influenza A virus; measure: EC50

Lines come from different laboratories, so protocols vary. An empty or dashed field is not shown. ECn: concentration that inhibits the pathogen or its effect by n%.

compound | strain | cell line | result
C#C[C@@H](O)C1=C[C@@H](n2cnc3c(N)ncnc32)[C@H](O)[C@@H]1O | H2N2 X31 | MDCK | >50 µg/mL
CCCN(CCc1cccc(O)c1)C(=O)[C@@H]1OC(C(=O)O)=C[C@H](N)[C@H]1NC(C)=O | A/Singapore/1/57 |  | 0.0002 µg/mL
C=C[C@H](O)C1=C[C@@H](n2cnc3c(N)ncnc32)[C@H](O)[C@@H]1O | H2N2 JAPAN 57 | MDCK | >250 µg/mL
Nc1nc2c(ncn2[C@@H]2O[C@H](CO)[C@@H](O)[C@H]2F)c(=O)[nH]1 | H2N2 A/Singapore/1/57 | MDCK | 8 µM
OC1(C23CC4CC(CC(C4)C2)C3)CC=NO1 | H7N1 A/Rostock/34 | Chick embryo fibroblasts | 16.35 µg/mL
CCC(CC)[C@H](NC(C)=O)[C@@H]1[C@H](O)[C@@H](C(=O)O)C[C@H]1N=C(N)N | H3N2 TOKYO/3/67 | MDCK | 0.0055 µM
CC(=O)N[C@H]1[C@H]([C@H](O)[C@H](O)CO)OC(C(=O)O)=C[C@@H]1N=C(N)N | H7N2 A/turkey/England/192-329/79 | MDCK | 0.08 µM
CC(=O)N[C@H]1[C@H]([C@H](O)[C@H](O)CO)OC(C(=O)O)=C[C@@H]1N=C(N)N | H5N1 A/gull/PA/4175/83 | MDCK | 0.22 µM
CCOC(=O)C1=C[C@@H](OC(CC)CC)[C@H](NC(C)=O)[C@@H](N)C1 | H5N1 A/chicken/Thailand/3/04 | MDCK | 22.35 µM
[N-]=C=Nc1nncs1 | H7N7 A/Weybridge | CEF | >32 µg/mL
CCCN(CCc1ccc(Cc2ccccc2)cc1)C(=O)[C@@H]1OC(C(=O)O)=C[C@H](N)[C@H]1NC(C)=O | A/Singapore/1/57 |  | <0.0001 µg/mL
c1cc(C23CC4CC(CC(C4)C2)C3)[nH]n1 | H7N1 A/Rostock/34 | Chick embryo fibroblasts | 21.57 µg/mL
CC[C@@H](O)C1=C[C@@H](n2cnc3c(N)ncnc32)[C@H](O)[C@@H]1O | H2N2 JAPAN 57 | MDCK | >250 µg/mL
CCCCCCCCCN(CCC)C(=O)[C@@H]1OC(C(=O)O)=C[C@H](N=C(N)N)[C@H]1NC(C)=O | A/Singapore/1/57 |  | 0.002 µg/mL
Clc1nc(CC23CC4CC(CC(C4)C2)C3)cs1 | H7N1 A/Rostock/34 | Chick embryo fibroblasts | 21.09 µg/mL
CCCN(CCc1cccc(OC)c1)C(=O)[C@@H]1OC(C(=O)O)=C[C@H](N)[C@H]1NC(C)=O | A/Singapore/1/57 |  | 0.0004 µg/mL
CCCC(CCC)C(NC(C)=O)C1CC(C(=O)O)CC1N=C(N)N | H5N1 A/duck/MN/1525/81 | MDCK | 0.01 µM
CC(=O)N[C@@H]1[C@@H](N)C=C(C(=O)O)O[C@H]1C(=O)N(CCc1ccccc1)CC(=O)O | A/Singapore/1/57 |  | 0.95 µg/mL
CC(N)C12CC3CC(CC(C3)C1)C2 | A/Weybridge | CEF | 0.2 µM
CCCN(CCCc1ccccc1)C(=O)[C@@H]1OC(C(=O)O)=C[C@H](N)[C@H]1NC(C)=O | A/Singapore/1/57 |  | 0.001 µg/mL
CCC(CC)[C@H](NC(C)=O)[C@@H]1C[C@@H](C(=O)O)C[C@H]1N=C(N)N | H5N1 A/gull/PA/4175/83 | MDCK | 0.03 µM

The first 2 rows once more:

compound | strain | cell line | result
C#C[C@@H](O)C1=C[C@@H](n2cnc3c(N)ncnc32)[C@H](O)[C@@H]1O | H2N2 X31 | MDCK | >50 µg/mL
CCCN(CCc1cccc(O)c1)C(=O)[C@@H]1OC(C(=O)O)=C[C@H](N)[C@H]1NC(C)=O | A/Singapore/1/57 |  | 0.0002 µg/mL